The values that follow come from article PMC3928424.

The experiment addresses NA of H1N1 I222V mutant (isolate 1) (Influenza A virus, UniProt A0A1U9HZA1, I223V).

As a reminder, the IC50 is the concentration that gives 50% inhibition. `CC(=O)N[C@H]1[C@H]([C@H](O)[C@H](O)CO)OC(C(=O)O)=C[C@@H]1N=C(N)N` registered an IC50 of 8.5 nM.
